Record: PubChem BioAssay AID1224833 (University of Georgia, 2016)
Assay: 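Host factors restraining rotavirus as candidate antiviral genes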 (primary screen). Cells: monkey MA104 kidney cells. Knock-down reagent: siRNA pool against human genes, 50 nM. Timing: 48 h knock-down before infection; read 24 h after infection. Challenge: infection with rotavirus strain RV3 two days after transfection; infectious dose for this stage not given. Measurement: 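Rotavirus antigen per well by fluorescent immunoassay, normalised to non-targeting control wells on each plate and given as a standard z-score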. Reading the numbers: z-score vs non-targeting control: higher = more rotavirus replication than with non-targeting control. Call rule: In these data the active calls have z-score vs non-targeting control at about -1 or lower, or at about 1 or higher. Meaning of the calls: active = z-score beyond 1 either way; inactive = z-score within 1 of zero.
The whole screen tested about 12,000 reagents; this is a random part of them. About 5,600 of them (46%) count as active. 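Active calls cover z-scores past 1 in both directions, so they include lowered as well as raised rotavirus replication.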 Unmarked entries are inactive. Reagent sequences are not shown.

| target | z-score vs non-targeting control |
| --- | --- |
| MNMIP1 (manchette microtubule inner protein 1) | -0.645 |
| CAMLG (calcium modulating ligand) | -0.506 |
| SIX5 (SIX homeobox 5) | 0.948 |
| TAS2R9 (taste 2 receptor member 9) | 1.27 (active) |
| LIPC (lipase C, hepatic type) | 0.516 |
| LINC02913 (long independently transcribed non-coding RNA 2913) | 1.2 (active) |
| PBX3 (PBX homeobox 3) | -0.966 |
| SHARPIN (SHANK associated RH domain interactor) | 0.254 |
| ADAMTS20 (ADAM metallopeptidase with thrombospondin type 1 motif 20) | 0.697 |
| GGN (gametogenetin) | -0.488 |
| LINS1 (lines homolog 1) | -0.488 |
| THAP10 (THAP domain containing 10) | -1.3 (active) |
| GALNT8 (polypeptide N-acetylgalactosaminyltransferase 8) | 3.23 (active) |
| IDH3A (isocitrate dehydrogenase (NAD(+)) 3 catalytic subunit alpha) | -0.962 |
| BOLL (boule RNA binding protein) | 0.624 |
| NDUFV3 (NADH:ubiquinone oxidoreductase subunit V3) | 0.0446 |
| SLC25A47 | -0.353 |
| IRGC (immunity related GTPase cinema) | 1.3 (active) |
| SOX7 (SRY-box transcription factor 7) | -0.0195 |
| MS4A8 (membrane spanning 4-domains A8) | 0.683 |
| MNDA (myeloid cell nuclear differentiation antigen) | -1.14 (active) |
| ARMCX2 (armadillo repeat containing X-linked 2) | -0.487 |
| CHD2 (chromodomain helicase DNA binding protein 2) | -0.769 |
| MYCT1 (MYC target 1) | -0.418 |
| RPL15 (ribosomal protein L15) | -1.23 (active) |
| FAM219A (family with sequence similarity 219 member A) | -1.1 (active) |
| GFRAL (GDNF family receptor alpha like) | 0.511 |
| LCE6A (late cornified envelope 6A) | 0.564 |
| TMSB4Y (thymosin beta 4 Y-linked) | 0.729 |
| HRNR (hornerin) | -1.59 (active) |
| IRX1 (iroquois homeobox 1) | -1.41 (active) |
| SPATS1 (spermatogenesis associated serine rich 1) | -1.42 (active) |
| MAPK8IP1 (mitogen-activated protein kinase 8 interacting protein 1) | -2.38 (active) |
| LTA4H (leukotriene A4 hydrolase) | -1.79 (active) |
| MLLT11 (MLLT11 transcription factor 7 cofactor) | -0.128 |
| PRRC2A (proline rich coiled-coil 2A) | -0.551 |
| BTF3 (basic transcription factor 3) | 1.5 (active) |
| BLMH (bleomycin hydrolase) | 1.24 (active) |
| ZNF511 (zinc finger protein 511) | -1.98 (active) |
| DGKZ (diacylglycerol kinase zeta) | -1.96 (active) |
| CYP2C18 (cytochrome P450 family 2 subfamily C member 18) | -2.05 (active) |
| KLHL12 (kelch like family member 12) | -1.31 (active) |

Not a retest: entries from further up.
| target | z-score vs non-targeting control |
| --- | --- |
| TAS2R9 (taste 2 receptor member 9) | 1.27 (active) |
| LIPC (lipase C, hepatic type) | 0.516 |
| LINC02913 (long independently transcribed non-coding RNA 2913) | 1.2 (active) |
| PBX3 (PBX homeobox 3) | -0.966 |
| SHARPIN (SHANK associated RH domain interactor) | 0.254 |
| ADAMTS20 (ADAM metallopeptidase with thrombospondin type 1 motif 20) | 0.697 |
| GGN (gametogenetin) | -0.488 |
| LINS1 (lines homolog 1) | -0.488 |
| THAP10 (THAP domain containing 10) | -1.3 (active) |
| GALNT8 (polypeptide N-acetylgalactosaminyltransferase 8) | 3.23 (active) |

Additional entries:
| target | z-score vs non-targeting control |
| --- | --- |
| UBAP1 (ubiquitin associated protein 1) | -0.146 |
| PARP10 (poly(ADP-ribose) polymerase family member 10) | -0.329 |
| OPN5 (opsin 5) | -0.941 |
| DOCK7 (dedicator of cytokinesis 7) | -2.05 (active) |
| H3C3 (H3 clustered histone 3) | 0.25 |
| VPS29 (VPS29 retromer complex component) | -1.16 (active) |
| BTG4 (BTG anti-proliferation factor 4) | -1.01 (active) |
| LMNTD2 (lamin tail domain containing 2) | 0.572 |
| HOXC10 (homeobox C10) | 0.602 |
| EZH1 (enhancer of zeste 1 polycomb repressive complex 2 subunit) | -2.9 (active) |
| GNMT (glycine N-methyltransferase) | -0.934 |
| TRAPPC2 (trafficking protein particle complex subunit 2) | -1.15 (active) |
| CPSF3 (cleavage and polyadenylation specific factor 3) | -0.91 |
| CH25H (cholesterol 25-hydroxylase) | 0.612 |
| FUNDC1 (FUN14 domain containing 1) | 0.0235 |
| NFKBIA (NFKB inhibitor alpha) | -0.495 |
| CHORDC1 (cysteine and histidine rich domain containing 1) | -0.258 |
| MAZ (MYC associated zinc finger protein) | -0.9 |
| PDE4A (phosphodiesterase 4A) | -0.605 |
| PUM3 (pumilio RNA binding family member 3) | 0.732 |
| SLC2A2 | 0.719 |
| DST (dystonin) | -0.39 |
| ZNF254 (zinc finger protein 254) | -1.34 (active) |
| ZFPM1 (zinc finger protein, FOG family member 1) | -1.21 (active) |
| ITFG2 (integrin alpha FG-GAP repeat containing 2) | -0.935 |
| NUP43 (nucleoporin 43) | -1.23 (active) |
| NEDD8 (NEDD8 ubiquitin like modifier) | -0.941 |
| C1QA (complement C1q A chain) | -2.14 (active) |
| MTMR12 (myotubularin related protein 12) | -0.711 |
| GZMM (granzyme M) | 2.14 (active) |
| KIF15 (kinesin family member 15) | -0.587 |
| KRTAP4-12 (keratin associated protein 4-12) | -0.038 |
| RPP38-DT (RPP38 divergent transcript) | -1.15 (active) |
